Pooled drug test results. Numbers come from NIAID ChemDB, via PubChem.

Common to all: growth or infection tests; agent: Mycobacterium tuberculosis

An empty or dashed field is not shown. MIC bound: limit read from a one-dose screen. Rows are shuffled and stem from different studies. MIC50, MIC90 and the like: level of inhibition, or share of isolates inhibited. ECn is the concentration giving n% inhibition of infection, replication or growth. Percent inhibition refers to the dose given; in toxicity tests it is the harm to the cells.

SMILES	mutations	tested at	cells	measure	strain or isolate	method	value
CCN1C(=O)CS/C1=N/NC(=O)c1c(C)nc2sccn12				MIC	H37Rv		>200 µg/mL
Cn1c2ccccc2c2cc(C=NNc3nc(-c4ccc(O)cc4)cs3)ccc21				EC90	H37Rv	fluorescence	>200 µM
CCc1cc(C(N)=S)ccn1				MIC	CIPT 14 001 0060 (Canetti)		0.5 µg/mL
CC1=CC[C@H]2[C@]3(C)CC[C@@]4(C)[C@@H]5CC(C)(C)CC[C@]5(C)CC[C@]4(C)[C@H]3CC[C@]12C				MIC bound	H37Rv	BACTEC	>12.5 µg/mL
FC(F)(F)Oc1ccc(-n2cc(Cn3c4ccccc4c4ccccc43)nn2)cc1				MIC	H37Rv	agar	25 µg/mL
Cn1c2ccccc2c2cc(C=NNc3nc(-c4ccc(Br)cc4)cs3)ccc21				EC90	H37Rv	fluorescence	160 µM
NC(=O)c1ncc[nH]c1=O				MIC bound	H37Rv	BACTEC	>12.5 µg/mL
C/C(=C\COC1CCCCO1)CC/C=C(\C)CCC1CCCCC1		6.25 µg/mL		inhibition	H37Rv	resazurin	77%
Cc1ccc(-c2cc(-c3ccc(Cl)cc3)nc(/N=C3\C(=O)Nc4ccc(Br)cc43)n2)cc1				EC50	H37Rv	BACTEC	<6.25 µg/mL
O=C(N/N=C/c1ccc(F)cc1)c1ccncc1				MIC90			0.2 µg/mL
C[C@H]1[C@H](C)CC[C@]2(C(=O)O)CC[C@]3(C)C(CC[C@@H]4[C@@]5(C)C[C@H](O)CC(C)(C)[C@@H]5CC[C@]43C)[C@H]12				MIC	EMB-R (ATCC 35837)	resazurin	25 µg/mL
O=C1C(Nc2ccccc2)=C(c2ccccc2)C(=O)N1c1ccccc1				MIC	H37Rv	BACTEC	≥12.5 µg/mL
O=C(NN1C(=O)CSC1c1cccc(F)c1)c1cc(-c2cc(F)cc(F)c2)ccc1O		6.25 µg/mL		inhibition	H37Rv	BACTEC	<90%
C=C1CCCC(C)(C)[C@H]1CC/C(C)=C/CC/C(C)=C/COC1CCCCO1		6.25 µg/mL		inhibition	H37Rv	resazurin	27%
C=C1C(=O)N[C@@H](C)C(=O)N[C@H](CC(C)C)C(=O)N[C@H](C(=O)O)[C@H](C)C(=O)N[C@H](CCCN=C(N)N)C(=O)N[C@@H](/C=C/C(C)=C/[C@H](C)[C@H](Cc2ccccc2)OC)[C@@H](C)C(=O)N[C@@H](C(=O)O)CCC(=O)N1C	Isoniazid-resistant			MIC		resazurin	>53 µM
O=[N+]([O-])c1ccc(Cn2cc(Cn3c4ccccc4c4ccccc43)nn2)cc1				MIC	H37Rv	agar	50 µg/mL
Cc1ccc(C2SCC(=O)N2NC(=O)c2cc(-c3cc(F)cc(F)c3)ccc2O)cc1		6.25 µg/mL		inhibition	H37Rv	BACTEC	<90%
CC(=O)OC/C=C(\C)CC/C=C(\C)CCC=C(C)C		6.25 µg/mL		inhibition	H37Rv	resazurin	31%
Nc1c(Br)cc(Br)cc1CNC1CCC(O)CC1				MIC	5 isolates		64 µg/mL
CC(C)(C)NNC(=O)/C(=C/c1ccc([N+](=O)[O-])cc1)NC(=O)c1ccccc1				MIC bound	H37Rv	BACTEC	>12.5 µg/mL
c1ccc(Cn2cc(Cn3c4ccccc4c4ccccc43)nn2)cc1				MIC	H37Rv	agar	50 µg/mL
O=C(NCc1ccccc1)N1CCN(c2ccccc2)C1=O				MIC bound	H37Rv	BACTEC	>12.5 µg/mL
CC[C@@H](CO)NCCN[C@@H](CC)CO				MIC	H37Rv		≤7.5 µg/mL
Cc1cc(=O)n(-c2ccccc2)c(=O)n1-c1nc2ccccc2[nH]1		6.25 µg/mL		inhibition	H37Rv	BACTEC	85%
Fc1cccc(CCNCCNC23CC4CC(CC(C4)C2)C3)c1				MIC			50 µM
CN[C@@H]1[C@H](O[C@H]2[C@H](O[C@H]3[C@H](O)[C@@H](O)[C@H](N=C(N)N)[C@@H](O)[C@@H]3N=C(N)N)O[C@@H](C)[C@]2(O)C=O)O[C@@H](CO)[C@H](O)[C@H]1O				MIC	H37Rv		≤6 µg/mL
CCc1ccccc1NC(=O)c1c(C)n([O-])c2ccc(F)cc2[n+]1=O			VERO	EC90	H37Rv	resazurin	0.504 µg/mL
Cc1ccc(-c2cc(-c3ccc(Cl)cc3)nc(/N=C3\C(=O)N(CN4CCOCC4)c4ccccc43)n2)cc1				EC50	H37Rv	BACTEC	<6.25 µg/mL
CSC(=S)N/N=C(/C)Cc1ccccn1			VERO	MIC	H37Rv		1.6 µg/mL
COc1cc2c(cc1-n1cc(Cn3c4ccccc4c4ccccc43)nn1)oc1ccccc12				MIC	H37Rv	agar	25 µg/mL
Cc1ccc(-c2cc(-c3ccc(Cl)cc3)nc(/N=C3\C(=O)N(CN4CCCCC4)c4ccc(Cl)cc43)n2)cc1				EC50	H37Rv	BACTEC	<6.25 µg/mL
CC(C)=CCC/C(C)=C/CNCCNCC(C)c1ccccc1				MIC			50 µM
C=CC(C)(O)CCC=C(C)CCC=C(C)C				MIC	H37Rv	resazurin	32 µg/mL
NNC(=O)c1ccncc1				MBC			>3.2 µg/mL
O=C1c2cc3c(cc2NC(c2ccccc2F)C1O)OCO3		6.25 µg/mL		inhibition	H37Rv	resazurin	2%
CC(C)=CCC/C(C)=C/CC/C(C)=C/CC/C(C)=C/CO		6.25 µg/mL		inhibition	H37Rv	resazurin	96%
O=[N+]([O-])c1ccc(/C(=C\c2ccc(-c3ccccc3)o2)S(=O)(=O)c2ccccc2)o1		12.5 µg/mL		inhibition	H37Rv	BACTEC	0%
CCCCC(Nc1cc(NC(=O)OCC)nc(N)c1N)C(C)O				EC50	H37Rv		>12.5 µg/mL
CC(C)COC(=O)N1N=NC2C3OC(CC3=O)C21		12.5 µg/mL		inhibition	H37Rv	BACTEC	0%
Fc1ccc(-n2cc(Cn3c4ccccc4c4ccccc43)nn2)cc1Cl				MIC	H37Rv	agar	25 µg/mL
O=c1[nH]cnc2c1cnn2Cc1cnnn1COCCO				EC50	H37Rv	BACTEC	>12.5 µg/mL
O=C1CCc2nc(=O)c3c4ccccc4ccc3n21				MIC bound	H37Rv	BACTEC	>12.5 µg/mL
CC(C)(C)C1CCC(=NNC(=O)c2ccncc2)CC1				MIC	EMB-resistant		0.1 µg/mL
COc1ccc(-c2csc(NN=Cc3ccc4c(c3)c3ccccc3n4C)n2)cc1OC				EC90	H37Rv	fluorescence	>50 µM
Cc1cc(N(CCC#N)CCC#N)ccc1/C=C1N=C(/C=C/c2ccccc2)N(NC(=O)CC(=O)Nc2ccccc2Cl)C\1=O		12.5 µg/mL		inhibition	H37Rv	BACTEC	19%
Oc1ccc(-c2cc(F)cc(F)c2)cc1-c1nnc(NC2CCCCC2)o1		6.25 µg/mL		inhibition	H37Rv	BACTEC	<90%
C#CCn1ncc2c(SCc3ccccc3)ncnc21				EC50	H37Rv	BACTEC	>12.5 µg/mL
C[C@@H]1CCC([C@@H](C)C(=O)OCCO)[C@@]23OO[C@@](C)(CCC12)O3				MIC	H37Rv	agar	>12.5 µg/mL
NC(=O)c1cnccn1				MIC	H37Rv	agar	50 µg/mL
COc1ccccc1/C=N/NC(=O)c1ccncc1				MIC90			0.3 µg/mL
O=C1C=C(Nc2ncn[nH]2)c2ccccc2C1=O				MIC bound	H37Rv		>6.25 µg/mL
CCC[C@H]1C[C@@H]2CC[C@@H](O2)[C@H](C)C(=O)O[C@@H]([C@H](C)[C@H]2CC[C@@H](C[C@@H](CCC)N(C)C)O2)[C@H](C)[C@@H]2CC[C@@H](O2)[C@@H](C)C(=O)O1				MIC	H37Rv		0.55 µg/mL
COc1ncnc2c1cnn2Cc1cn(COCCO)nn1				EC50	H37Rv	BACTEC	<6.25 µg/mL
C[C@H]1COc2c(N3CCN(C)CC3)c(F)cc3c(=O)c(C(=O)O)cn1c23				MIC	3181-5		1 µg/mL
CCc1ccccc1NC(=O)c1c(C)n([O-])c2cc(F)c(F)cc2[n+]1=O			VERO	EC90	H37Rv	resazurin	0.517 µg/mL
Cn1c2ccccc2c2cc(C=NNc3nc(-c4ccc([N+](=O)[O-])cc4)cs3)ccc21				MIC	H37Rv	fluorescence	>200 µM
C/C=C/N1C(=O)CS/C1=N/NC(=O)c1c(C)nc2sccn12				MIC	H37Rv		>200 µg/mL
Cc1ccc(-c2cc(-c3ccc(Cl)cc3)nc(/N=C3\C(=O)N(CN4CCCCC4)c4ccccc43)n2)cc1				EC50	H37Rv	BACTEC	<6.25 µg/mL
C=C1CCCC(C)(C)[C@@H]1CC/C(C)=C/CC/C(C)=C/CO		6.25 µg/mL		inhibition	H37Rv	resazurin	36%
Fc1cccc(Cl)c1Cn1cc(Cn2c3ccccc3c3ccccc32)nn1				MIC	H37Rv	agar	12.5 µg/mL
COc1ccc(C=O)c(C(=O)O)c1OC				MIC	H37Rv	BACTEC	≥128 µg/mL
O=c1[nH]cnc2c1cnn2Cc1cn(COCCO)nn1				EC50	H37Rv	BACTEC	>12.5 µg/mL
CCNC(=S)NNC(=O)c1c(C)nc2sccn12				MIC	H37Rv		>200 µg/mL
Cc1ccc2c(c1)[n+](=O)c(C(=O)NCc1ccc(C(F)(F)F)cc1)c(C)n2[O-]				EC90	H37Rv	resazurin	>100 µg/mL
Fc1cccc(F)c1C1SCc2nc3ccc(Cl)cc3n21		12.5 µg/mL		inhibition	H37Rv	BACTEC	0%
Fc1ccc(Cn2cc(Cn3c4ccccc4c4ccccc43)nn2)cc1Br				MIC	H37Rv	agar	6.25 µg/mL
Cc1c(C(=O)NCc2ccccc2)[n+](=O)c2cc(Cl)c(Cl)cc2n1[O-]			VERO	EC90	H37Rv	resazurin	<0.2 µg/mL
CCc1cc(C(=O)OC)c(=O)n2c1-c1[nH]c3ccccc3c1CC2		6.25 µg/mL		inhibition	H37Rv	resazurin	22%
Cc1nc2sccn2c1C(=O)N/N=C1/SCC(=O)N1C				MIC	H37Rv		>200 µg/mL
CO[C@H]1/C=C/O[C@@]2(C)Oc3c(C)c(O)c4c(O)c(c(/C=N/N5CCN(C)CC5)c(O)c4c3C2=O)NC(=O)/C(C)=C\C=C\[C@H](C)[C@H](O)[C@@H](C)[C@@H](O)[C@@H](C)[C@H](OC(C)=O)[C@@H]1C				MBC			0.5 µg/mL
COC(=O)c1nc(N)nc(C(=O)OC)c1C(=O)c1ccncc1		12.5 µg/mL		inhibition	H37Rv	BACTEC	0%
OCCOCn1cc(Cn2ncc3c(SCc4ccccc4)ncnc32)nn1		6.25 µg/mL		inhibition	H37Rv	BACTEC	52%
CC(C)=CCC/C(C)=C/CO				MIC	H37Rv	resazurin	64 µg/mL
CCCCC(CC)CN1CN(CC(CC)CCCC)CC(C)(NCCNCCc2ccc(F)cc2)C1				MIC			12.5 µM
C=CCN1C(=O)CS/C1=N/NC(=O)c1cc(-c2cc(F)cc(F)c2)ccc1O		6.25 µg/mL		inhibition	H37Rv	BACTEC	<90%
CCCCOC(=O)CNC(=O)c1c2nc3c(C(=O)NCC(=O)OCCCC)ccc(C)c3oc-2c(C)c(=O)c1N				MIC bound	H37Rv	BACTEC	>12.5 µg/mL
Cc1ccc(-c2cc(-c3ccc(Cl)cc3)nc(/N=C3\C(=O)Nc4ccccc43)n2)cc1				EC50	H37Rv	BACTEC	<6.25 µg/mL
COc1cc(C)cc2c1C(=O)C=C(c1c(C)cc3c(c1O)C(=O)C=CC3=O)C2=O				MIC	H37Rv		>100 µg/mL
O=C(NN1C(=O)CSC1c1ccc(Cl)cc1)c1cc(-c2cc(F)cc(F)c2)ccc1O		6.25 µg/mL		inhibition	H37Rv	BACTEC	<90%
CC(C)=CC[C@H](O)C1=CC(=O)c2c(O)ccc(O)c2C1=O				MIC	H37Rv	BACTEC	6.4 µg/mL
CC(C)c1ccc2c(c1)CC[C@H]1[C@](C)(CNCCNCCCc3ccccc3)CCC[C@]21C				MIC			25 µM
C=C1CCC2C(C)(C)CCC[C@@]2(C)[C@@H]1CC/C(C)=C/COC(C)=O		6.25 µg/mL		inhibition	H37Rv	resazurin	29%
Cn1c2ccccc2c2cc(C=NNc3nc(-c4cccc(F)c4)cs3)ccc21				MIC	H37Rv	fluorescence	>200 µM
O=C(O)C1CC(=O)N(Cc2ccccc2)C1		6.25 µg/mL		inhibition	H37Rv	resazurin	6%
Cc1ccc(-c2cc(-c3ccc(Cl)cc3)nc(/N=C3\C(=O)N(CN4CCOCC4)c4ccc(Cl)cc43)n2)cc1		6.25 µg/mL		inhibition	H37Rv	BACTEC	86%

11 of the rows above, restated:

SMILES	mutations	tested at	cells	measure	strain or isolate	method	value
O=[N+]([O-])c1ccc(/C(=C\c2ccc(-c3ccccc3)o2)S(=O)(=O)c2ccccc2)o1		12.5 µg/mL		inhibition	H37Rv	BACTEC	0%
C=CCN1C(=O)CS/C1=N/NC(=O)c1cc(-c2cc(F)cc(F)c2)ccc1O		6.25 µg/mL		inhibition	H37Rv	BACTEC	<90%
CC[C@@H](CO)NCCN[C@@H](CC)CO				MIC	H37Rv		≤7.5 µg/mL
Cc1cc(N(CCC#N)CCC#N)ccc1/C=C1N=C(/C=C/c2ccccc2)N(NC(=O)CC(=O)Nc2ccccc2Cl)C\1=O		12.5 µg/mL		inhibition	H37Rv	BACTEC	19%
Fc1cccc(CCNCCNC23CC4CC(CC(C4)C2)C3)c1				MIC			50 µM
O=C1C=C(Nc2ncn[nH]2)c2ccccc2C1=O				MIC bound	H37Rv		>6.25 µg/mL
O=C1CCc2nc(=O)c3c4ccccc4ccc3n21				MIC bound	H37Rv	BACTEC	>12.5 µg/mL
C=C1CCC2C(C)(C)CCC[C@@]2(C)[C@@H]1CC/C(C)=C/COC(C)=O		6.25 µg/mL		inhibition	H37Rv	resazurin	29%
CO[C@H]1/C=C/O[C@@]2(C)Oc3c(C)c(O)c4c(O)c(c(/C=N/N5CCN(C)CC5)c(O)c4c3C2=O)NC(=O)/C(C)=C\C=C\[C@H](C)[C@H](O)[C@@H](C)[C@@H](O)[C@@H](C)[C@H](OC(C)=O)[C@@H]1C				MBC			0.5 µg/mL
C=CC(C)(O)CCC=C(C)CCC=C(C)C				MIC	H37Rv	resazurin	32 µg/mL
Cn1c2ccccc2c2cc(C=NNc3nc(-c4cccc(F)c4)cs3)ccc21				MIC	H37Rv	fluorescence	>200 µM